{
  "source": "patent US20260184773A1",
  "about": "“THERAPEUTIC SINGLE DOMAIN ANTIBODY” (priority 2021, published 2026)",
  "test_system": "VEGF production by retinal epithelial cells (ARPE-19)",
  "data": [
    {"substance": "SBT-100: 15 kDa camelid single domain antibody (VHH), SEQ ID NO: 1, binds both STAT3 and KRAS", "values": [
      {"measurement": "Time to inhibit VEGF protein production to near zero", "setting": "human retinal epithelial cells", "value": "≤ 12", "unit": "h"},
      {"measurement": "Duration of biological effect on VEGF of a single administration", "setting": "retinal epithelial cells in vitro", "value": "at least 48 hours"}
    ]}
  ]
}
